Test system: SARS-CoV
Assay: Antiviral activity against SARS-CoV infected in human 293T cells harboring ACE2 assessed as reduction in virus infectivity pretreated with cells followed by viral infection and measured after 2 days by luciferase based reporter gene assay
Conditions: hek293t

Structure (SMILES)	IC50 [nM]
COCCN1CCN(C(=O)N[C@@H](Cc2ccccc2)C(=O)N[C@H](/C=C/S(=O)(=O)c2ccccc2)CCc2ccccc2)CC1	0.07
CC(C)(C)N1CCN(C(=O)N[C@@H](Cc2ccccc2)C(=O)N[C@H](/C=C/S(=O)(=O)c2ccccc2)CCc2ccccc2)CC1	0.08

Source: ChEMBL document CHEMBL4715853 (J Med Chem, 2020)
